Results of unrelated studies side by side (data: NIAID ChemDB).

All rows: growth or infection tests; organism: HIV-1; read by: p24 / ELISA / antigen; endpoint: EC50

Conditions beyond the fields shown may differ between rows.

compound,cell line,strain,value
O=C(CSc1ccccn1)Nc1cc(C(F)(F)F)cc(C(F)(F)F)c1,MT-4,IIIB,>100 µM
CNC(=O)P(=O)(O)OC1OC(n2cc(C)c(=O)[nH]c2=O)CC1N=[N+]=[N-],MT-4,TKV-4046,0.23 µM
C[C@H]1C/C=C/[C@H]2[C@@H]3O[C@]3(C)[C@@H](C)C3[C@H](Cc4c[nH]c5ccccc45)NC(=O)[C@]32c2ccc([nH]2)C(=O)[C@H](C)C1,MT-4,LAI,0.68 µM
Cc1cn([C@H]2C[C@H](N=[N+]=[N-])[C@@H](CO)O2)c(=O)[nH]c1=O,CEM-SS,BRU,0.037 µM
C/C1=C\[C@@H](C)C/C=C/[C@H]2[C@H](O)[C@@]3(C)O[C@@]4(Cc5c[nH]c6ccccc56)NC(=O)[C@]2(c2ccc([nH]2)C1=O)C4[C@@H]3C,MT-4,LAI,0.55 µM
Cc1cn(C2CC(N=[N+]=[N-])C(OP(=O)(O)C(N)=O)O2)c(=O)[nH]c1=O,MT-4,TKV-4046,0.6 µM
Cc1cn([C@@H]2C[C@@H](N=[N+]=[N-])[C@H](COP(=O)(CF)OC[C@H]3O[C@@H](n4cc(C)c(=O)[nH]c4=O)C[C@@H]3N=[N+]=[N-])O2)c(=O)[nH]c1=O,CEM-SS,BRU,0.015 µM
CC1CNC(=O)c2ccccc2SSc2ccccc2C(=O)N1,HuT-78,IIIB,29 µM
CCCCCCNC(=O)P(=O)(O)OC1OC(n2cc(C)c(=O)[nH]c2=O)CC1N=[N+]=[N-],MT-4,TKV-4046,0.11 µM
Nc1nnc(SCC(=O)Nc2ccccc2)s1,MT-4,IIIB,20.83 µM
C=C1[C@@H](C)C2[C@H](Cc3c[nH]c4ccccc34)NC(=O)[C@]23c2ccc([nH]2)C(=O)[C@@H](C)C[C@@H](C)C/C=C/[C@H]3[C@@H]1O,MT-4,LAI,0.34 µM
Cc1cn([C@@H]2C[C@@H](N=[N+]=[N-])[C@H](COP(=O)(COc3ccccc3)OC[C@H]3O[C@@H](n4cc(C)c(=O)[nH]c4=O)C[C@@H]3N=[N+]=[N-])O2)c(=O)[nH]c1=O,CEM-SS,BRU,0.25 µM
C=C(C)[C@]1(O)C[C@@H](C)[C@@]2(O)[C@H]([C@H]1OC(=O)/C=C/C=C/CCCCC)[C@@H]1O[C@]1(CO)[C@@H](O)[C@]1(O)C(=O)C(C)=C[C@H]12,C8166,A17,0.02515 µM
CC(C)CCC[C@@H](C)[C@H]1CCC2C3CCC4C[C@@H](O[C@@H]5O[C@H](COS(=O)(=O)[O-])[C@@H](O[C@H]6O[C@H](COS(=O)(=O)[O-])[C@@H](O[C@H]7O[C@H](COS(=O)(=O)[O-])[C@@H](O[C@H]8O[C@H](COS(=O)(=O)[O-])[C@@H](OS(=O)(=O)[O-])[C@H](OS(=O)(=O)[O-])[C@H]8OS(=O)(=O)[O-])[C@H](OS(=O)(=O)[O-])[C@H]7OS(=O)(=O)[O-])[C@H](OS(=O)(=O)[O-])[C@H]6OS(=O)(=O)[O-])[C@H](OS(=O)(=O)[O-])[C@H]5OS(=O)(=O)[O-])CC[C@]4(C)C3CC[C@@]21C,PBMC,HI05-91 isolate (R5),4 µg/mL
O=C(CSc1ccccn1)Nc1ccccc1,MT-4,IIIB,>100 µM
CC1=C[C@@H]2/C=C/C[C@H](C)/C=C(\C)C(=O)c3ccc([nH]3)[C@]23C(=O)N[C@@H](Cc2c[nH]c4ccccc24)C3[C@@H]1C,MT-4,LAI,1.23 µM
Nc1nnc(SCC(=O)Nc2cc(C(F)(F)F)cc(C(F)(F)F)c2)s1,MT-4,IIIB,14.93 µM
Cc1cn([C@@H]2C[C@@H](N=[N+]=[N-])[C@H](COP(=O)(OC[C@H]3O[C@@H](n4cc(C)c(=O)[nH]c4=O)C[C@@H]3N=[N+]=[N-])c3ccccc3)O2)c(=O)[nH]c1=O,CEM-SS,BRU,10 µM

2 of the rows above, restated:

compound,cell line,strain,value
CC1CNC(=O)c2ccccc2SSc2ccccc2C(=O)N1,HuT-78,IIIB,29 µM
O=C(CSc1ccccn1)Nc1ccccc1,MT-4,IIIB,>100 µM

ECn is the concentration giving n% inhibition of infection, replication or growth.